Measured values from patent US20070148124A1, “Cellulose and acrylic based polymers and the use thereof for the treatment of infectious diseases” (priority 2004, published 2007).

Legend:
[1] = tested on: MAGI-R5 or HeLa CD4 LTR β-gal cells

Dextran sulfate [DS] was tested, and the “CC50 (wt. %)” value (P4-CCR5 cells) was over 1 wt. % and the CC50 [1] was over 2000 µg/mL.
